Target: PgCoV-RBD-Fc (pangolin coronavirus (PgCoV))
Experiment: SPR
Conditions: domain or fragment

Substance: monomeric tagged soluble pangolin ACE2 (pangolin ACE2-CT)
- Kd: 930 nM
